Measured data: PubChem BioAssay AID624099 (ICCB-Longwood, 2012)

- Screen: 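Human genes that papillomavirus E2 requires to repress the HPV18 LCR promoter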 (primary screen)
- System: human C33A cervical carcinoma cells (HPV-negative) stably expressing BPV1 E2 and an HPV18 LCR luciferase reporter
- Reagents: siRNA pool against human genes, 40 nM
- Duration: 72 h
- Measurement: 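HPV18 LCR reporter light per well, converted to plate-wise z-scores that exclude control wells, and averaged over triplicate plates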
- Direction: mean z-score and z-score: higher = stronger reporter signal, weaker E2 silencing
- Hit rule: 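Hit if mean z-score reaches 2 and two or more of three replicate z-scores also reach 2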
In all, the deposit lists about 21,000 reagents; shown is an unselected part. Over the whole deposit, 497 (2.4%) are marked active. 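Higher z means weaker E2 silencing; only reporter increases were scored, and knock-downs that hurt cell survival may mask genuine repressor factors.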 The numbers tell different reagents against one gene apart.

| gene symbol | pool no. | mean z-score | z-score, replicate A | z-score, replicate B | z-score, replicate C | Outcome |
| --- | --- | --- | --- | --- | --- | --- |
| BTN3A1 (butyrophilin subfamily 3 member A1) | 1 | 1.52 | 1.76 | 1.46 | 1.35 | inactive |
| TUSC3 (tumor suppressor candidate 3) | 1 | 0.7 | 0.26 | 0.7 | 1.13 | inactive |
| SLC22A17 | 1 | -0.01 | 0.25 | -0.23 | -0.06 | inactive |
| FBXO32 (F-box protein 32) | 1 | 0.26 | 0.3 | -0.06 | 0.55 | inactive |
| SCGB1D2 (secretoglobin family 1D member 2) | 1 | -0.05 | 0.43 | -0.33 | -0.24 | inactive |
| PRSS55 (serine protease 55) | 1 | 0.08 | 0.08 | 0.34 | -0.19 | inactive |
| LYSMD3 (LysM domain containing 3) | 1 | -1.54 | -1.82 | -1.28 | -1.54 | inactive |
| ZAN (zonadhesin) | 1 | 0.54 | 0.06 | 0.95 | 0.61 | inactive |
| CHRNA7 (cholinergic receptor nicotinic alpha 7 subunit) | 1 | -0.28 | -0.24 | -0.26 | -0.32 | inactive |
| PLBD2 (phospholipase B domain containing 2) | 1 | 1.12 | 0.97 | 1.13 | 1.27 | inactive |
| GLYR1 (glyoxylate reductase 1 homolog) | 1 | 0.56 | 0.47 | 0.56 | 0.65 | inactive |
| PMCHL2 (pro-melanin concentrating hormone like 2 (pseudogene)) | 1 | -0.11 | -0.19 | -0.28 | 0.13 | inactive |
| RANBP3L (RAN binding protein 3 like) | 1 | -0.04 | 0.04 | 0.02 | -0.17 | inactive |
| RSPH10B (radial spoke head 10 homolog B) | 1 | 0.79 | 0.65 | 0.94 | 0.48 | inactive |
| PGBD2 (piggyBac transposable element derived 2) | 1 | -0.05 | 0.04 | -0.45 | 0.26 | inactive |
| TMEM140 (transmembrane protein 140) | 1 | 0.68 | 0.5 | 0.48 | 1.06 | inactive |
| SPATA19 (spermatogenesis associated 19) | 1 | 0.32 | 0.09 | 0.37 | 0.5 | inactive |
| BANP (BTG3 associated nuclear protein) | 1 | -0.25 | -0.74 | -0.23 | 0.21 | inactive |
| WNT10A (Wnt family member 10A) | 1 | -0.61 | -0.75 | -0.59 | -0.5 | inactive |
| ECHDC2 (enoyl-CoA hydratase domain containing 2) | 1 | -0.73 | -0.92 | -0.68 | -0.59 | inactive |
| CD163L1 (CD163 molecule like 1) | 1 | 1.09 | 1.09 | 1.12 | 1.05 | inactive |
| CEBPB (CCAAT enhancer binding protein beta) | 1 | -0.43 | -0.41 | -0.59 | -0.3 | inactive |
| TMEM208 (transmembrane protein 208) | 1 | -0.15 | -0.19 | -0.5 | 0.23 | inactive |
| WBSCR23 (Williams-Beuren syndrome chromosome region 23) | 1 | -0.32 | -0.28 | -0.21 | -0.47 | inactive |
| SBF1 (SET binding factor 1) | 1 | 0.52 | 0.41 | 0.39 | 0.77 | inactive |
| GORASP2 (golgi reassembly stacking protein 2) | 1 | -0.42 | -0.3 | -0.54 | -0.43 | inactive |
| CTSD (cathepsin D) | 1 | -0.93 | -1.02 | -1 | -0.76 | inactive |
| EMILIN3 (elastin microfibril interfacer 3) | 1 | 1.08 | 0.8 | 1.33 | 1.1 | inactive |
| ADAMTSL4 (ADAMTS like 4) | 1 | -0.88 | -1.2 | -0.57 | -0.89 | inactive |
| ADAMTSL4 (ADAMTS like 4) | 2 | -0.21 | -0.41 | -0.41 | 0.2 | inactive |
| IL1RN (interleukin 1 receptor antagonist) | 1 | -0.07 | 0.13 | -0.01 | -0.34 | inactive |
| LINC00996 (long independently transcribed non-coding RNA 996) | 1 | 1.19 | 1.03 | 1.49 | 1.05 | inactive |
| CRCT1 (cysteine rich C-terminal 1) | 1 | -1.15 | -1.02 | -1.18 | -1.26 | inactive |
| PLA2G4D (phospholipase A2 group IVD) | 1 | 1.19 | 1.16 | 1.07 | 1.33 | inactive |
| ANTXR2 (ANTXR cell adhesion molecule 2) | 1 | -0.17 | -0.43 | -0.2 | 0.1 | inactive |
| VN1R4 (vomeronasal 1 receptor 4) | 1 | -0.7 | -0.94 | -0.7 | -0.47 | inactive |
| FBXO17 (F-box protein 17) | 1 | -0.55 | -0.46 | -0.84 | -0.34 | inactive |
| NUP85 (nucleoporin 85) | 1 | 1.12 | 0.69 | 1.55 | – | inactive |
| MED15 (mediator complex subunit 15) | 1 | 1.17 | 1.38 | 1.26 | 0.88 | inactive |
